{
  "source": "patent US10457946B2",
  "about": "“Methods for overcoming glucocorticoid resistance and for determining glucocorticoid resistance potential in cancer” (St. Jude Children's Research Hospital, Inc., priority 2013, dated 2019)",
  "key": {"[1]": {"tested_on": "NALM-6 cells overexpressing CASP1", "type": "cell-based, human", "method": "NALM-6 cells overexpressing CASP1 were stably transduced with lentiviral vectors (Sigma-Aldrich, St. Louis, Mo.) containing non-targeting scrambled hairpin (shNT, sequence: […] (SEQ ID NO: 13)) or shRNA hairpins targeting CASP1 (shCASP1, sequence: […] (SEQ ID NO: 14)). The two cell lines were cultured for 48 hours in the presence and absence of LPS/ATP to allow for the activation of CASP1, and subsequently analyzed on Western blot for the expression levels of CASP1 and glucocorticoid receptor (GR) (Panel A). The quantified signal intensities of 90-kDa GR and 20-kDa active CASP1 normalized for the loading control HSP90, are shown in the bar graph (Panel A). […] The sensitivity (LC50) of shCASP1 and shNT cells to prednisolone was determined by MTT assays (Panel B). […] Error bars represent S.E.M; n=4 replicate experiments.\nNALM-6 cells overexpressing CASP1 co-transfected with either non-targeting scrambled hairpin (shNT; SEQ ID NO: 13) or shRNA hairpins targeting CASP1 (shCASP1; SEQ ID NO: 14) were stably transduced with lentiviral vectors (Addgene plasmid 25890; Sigma-Aldrich, St. Louis, Mo.) containing a wild-type glucocorticoid receptor (SEQ ID NO: 16) or a glucocorticoid receptor in which both CASP1 cleavage sites had been eliminated (double mutagenized GR, DM-GR (SEQ ID NO: 17)). […] The inset is a western blot depicting recombinant GR protein levels (wild-type, or double mutagenized), in cells at time of MTT drug sensitivity assays.\nLeukemia cells were isolated at diagnosis from patient bone marrow aspirates. If the leukemia cell percentage from diagnostic bone marrow samples was less than ninety percent, magnetic activated cell sorting (Miltenyl Biotec, Auburn, Calif.) was performed to further enrich for leukemia cells. If red cell contamination was greater than thirty percent, red blood cell lysis was performed. Cells were centrifuged at 300 g for five minutes and resuspended at a concentration of two million cells per milliliter. […] LC50 values were determined as previously described (Holleman et al., 2004). […]"}, "CASP1": {"tested_on": "CASP1", "test": "Western blot of CASP1 and glucocorticoid receptor (GR) in CASP1 overexpressing NALM-6 cells", "type": "cell-based, human", "conditions": "+LPS/ATP, FIG. 9A/9C"}},
  "data": [
    {"substance": "CrmA: cytokine response modifier A, a known inhibitor of CASP1 catalytic activity, expressed by lentiviral transduction", "values": [
      {"measurement": "CC50", "setting": "[1]; CASP1 overexpressing NALM-6 cells transduced with the named gene, +LPS/ATP, MTT, mean±S.E.M., read-out: LC50 (sensitivity to glucocorticoid treatment, prednisolone)", "value": "3.2 ± 0.2", "unit": "µM"},
      {"measurement": "PRED-LC50 compared with control (shNT or GFP) cells", "setting": "[1]; absence of CASP1 activation (−LPS/ATP)", "value": "comparable"},
      {"measurement": "fold reduction in LC50 versus GFP transfected controls", "setting": "[1]; prednisolone, CASP1 overexpressing NALM-6 cells, +LPS/ATP, t-test p=0.011", "value": 43, "unit": "fold"},
      {"measurement": "CASP1-induced GR cleavage", "setting": "CASP1", "value": "blocked CASP1 induced GR cleavage"}
    ]}
  ]
}
